Compound potency records, mixed from different reports. Data source: NIAID ChemDB in PubChem.

Common to all: whole-cell or culture tests; organism: HIV-2; read by: MTT; measure: EC50

ECn: concentration that inhibits the pathogen or its effect by n%. Conditions beyond the fields shown may differ between rows. Blank or dashed fields: not listed here.

| SMILES | strain | cells | conditions | value |
|---|---|---|---|---|
| Cc1cn([C@H]2C=C[C@@H](CO)O2)c(=O)[nH]c1=O | ROD | MT-4 | - | 0.024 µM |
| CCOP(=O)(CN[C@@H](Cc1ccccc1)[C@H](O)CN(CC(C)C)S(=O)(=O)c1ccc(OC)cc1)OCC | ROD | MT-4 | - | >64.5 µg/mL |
| Cc1ccc(S(=O)(=O)NC(c2nnc(Nc3ccc(Br)cc3)s2)C(C)C)cc1 | ROD | MT-4 | - | >6.49 µM |
| Cc1cc(C#N)cc(C)c1Oc1nc(Nc2ccc(C#N)cc2)ncc1SCC(=O)NCC1CCCO1 | ROD | MT-4 | - | >25.4 µM |
| Cc1ccc(S(=O)(=O)NC(C)c2nnc(Nc3ccc(F)cc3)s2)cc1 | ROD | MT-4 | - | >71.85 µM |
| O=[N+]([O-])c1ccc(/C=N/Nc2nc(-c3ccc([N+](=O)[O-])cc3)cs2)cc1 | ROD | MT-4 | - | >73.58 µM |
| COc1ccc(Nc2nnc(C(NS(=O)(=O)c3ccc(Cl)cc3)C(C)C)s2)cc1 | ROD | MT-4 | - | >10.08 µM |
| Cc1cc(-c2ccc(C#N)cc2)cc(Cl)c1Oc1nc(Nc2ccc(C#N)cc2)nc2ccsc12 | ROD | MT-4 | - | >70.3 µM |
| Cc1ccc(NC2=NS(=O)(=O)NC(Cc3ccccc3)=C2)cc1C | ROD | MT-4 | - | >177 µM |
| C=CCNC(=O)CSc1cnc(Nc2ccc(C#N)cc2)nc1Oc1c(C)cc(C#N)cc1C | ROD | MT-4 | - | >27.8 µM |
| O=C(OC[C@H]1O[C@@H](OC(=O)c2cc(OS(=O)(=O)O)c(OS(=O)(=O)O)c(OS(=O)(=O)O)c2)[C@H](OC(=O)c2cc(OS(=O)(=O)O)c(OS(=O)(=O)O)c(OS(=O)(=O)O)c2)[C@@H](OC(=O)c2cc(OS(=O)(=O)O)c(OS(=O)(=O)O)c(OS(=O)(=O)O)c2)[C@@H]1OC(=O)c1cc(OS(=O)(=O)O)c(OS(=O)(=O)O)c(OS(=O)(=O)O)c1)c1cc(OS(=O)(=O)O)c(OS(=O)(=O)O)c(OS(=O)(=O)O)c1 | ROD | MT-4 | 5 d | 0.22 µg/mL |
| CSC(=Nc1ccccc1)Nn1c(C)nc2ccccc2c1=O | ROD | MT-4 | - | 57.26 µg/mL |
| Cc1cnc(Nc2ccc(C#N)cc2)nc1C(C)(O)c1ccc(F)cc1 | ROD | MT-4 | - | >38.2 µM |
| Cc1cc(C)c(Nc2nc(NC3CCN(Cc4ccc(C#N)cc4)CC3)nc3nc[nH]c23)c(C)c1 | ROD | MT-4 | - | >26.79 µM |
| O=S1(=O)N=C(Nc2cccc(Cl)c2)C=C(Cc2cccc3ccccc23)N1 | ROD | MT-4 | - | >161 µM |
| COc1cc([C@@H]2Oc3cc([C@H]4Oc5cc(O)cc(O)c5C(=O)[C@@H]4O)ccc3O[C@H]2COP(=O)(O)OC[C@H]2O[C@@H](O[C@H]3[C@H](O)[C@@H](O)[C@@H](OC)O[C@@H]3CO)[C@H](O)[C@@H](O)[C@H]2O)ccc1O | ROD | MT-4 | - | >130 µM |
| C#CCNC(=O)CSc1cnc(Nc2ccc(C#N)cc2)nc1Oc1c(C)cc(C#N)cc1C | ROD | MT-4 | - | >23.5 µM |
| CCCN(C)c1nc(C(C)c2c(F)cccc2F)c(C)c(=O)[nH]1 | ROD | MT-4 | - | 8.6 µM |
| N#Cc1ccc(Nc2nc(Oc3ccc(-c4ccc(C#N)cc4)cc3Cl)c3sccc3n2)cc1 | ROD | MT-4 | - | >16.1 µM |
| O=[N+]([O-])c1ccc(-c2csc(N/N=C/c3ccncc3)n2)cc1 | ROD | MT-4 | - | >75.6 µM |
| N#Cc1ccc(Nc2nc(Oc3ccc(-c4ccc(C#N)cc4)c(C#N)c3)c3sccc3n2)cc1 | ROD | MT-4 | - | 1.4 µM |
| COc1ccc(S(=O)(=O)NC(Cc2ccccc2)c2nnc(Nc3ccc(Br)cc3)s2)cc1 | ROD | MT-4 | - | >1.98 µM |
| O=C(COc1cccc2ccccc12)NN=CCc1ccccc1 | ROD | MT-4 | - | >62.68 µg/mL |
| CSC(=Nc1cccc(Cl)c1)Nn1c(C)nc2ccccc2c1=O | ROD | MT-4 | - | 1.17 µg/mL |
| N#Cc1ccc(Nc2nc(Oc3ccc(-c4ccc(C#N)cc4)c([N+](=O)[O-])c3)c3sccc3n2)cc1 | ROD | MT-4 | - | >34.4 µM |
| Cc1cc(C#N)cc(C)c1Oc1nc(Nc2ccc(C#N)cc2)ncc1SCC(=O)NCCN1CCN(C(=O)OC(C)(C)C)CC1 | ROD | MT-4 | - | >21.5 µM |
| O=[N+]([O-])c1ccc(-c2csc(N/N=C/c3ccccc3O)n2)cc1 | ROD | MT-4 | - | >125 µM |
| Cc1cc(C)c(Nc2nc(NC3CCN(Cc4ccc(F)cc4)CC3)nc3nc[nH]c23)c(C)c1 | ROD | MT-4 | - | >13.97 µM |
| COc1ccc(CSc2nc(C(=O)c3cccc(Br)c3)c(C)c(=O)[nH]2)cc1 | - | MT-4 | - | >252 µM |
| COC(=O)CSc1cnc(Nc2ccc(C#N)cc2)nc1Oc1c(C)cc(C#N)cc1C | ROD | MT-4 | - | >3.32 µM |
| O=C(COc1ccc2ccccc2c1)NCc1n[nH]c(=S)n1-c1ccccc1 | ROD | MT-4 | - | >20.2 µg/mL |
| Cc1cc(C)c(NC2=NS(=O)(=O)NC(Cc3ccc4ccccc4c3)=C2)c(C)c1 | ROD | MT-4 | - | >96 µM |
| CSC(=Nc1ccc([N+](=O)[O-])cc1)Nn1c(C)nc2ccccc2c1=O | ROD | MT-4 | - | 1.56 µg/mL |
| COc1ccc(NC(=S)NNC(=O)CNC(=O)COc2ccc3ccccc3c2)cc1 | ROD | MT-4 | - | >13.2 µg/mL |
| C/C(=N\Nc1nc(-c2ccc(C#N)cc2)cs1)c1ccc(-n2ccnc2)cc1 | ROD | MT-4 | - | >73.95 µM |
| CCc1ccccc1N=C(Nn1c(C)nc2ccccc2c1=O)SC | ROD | MT-4 | - | 34.45 µg/mL |
| COc1cc([C@@H]2Oc3cc([C@H]4Oc5cc(O)cc(O)c5C(=O)[C@@H]4O)ccc3O[C@H]2COP(=O)(O)OC[C@H]2O[C@H](O[C@H]3O[C@H](CO)[C@@H](O)[C@H](O)[C@H]3O)[C@H](O)[C@@H](O)[C@@H]2O)ccc1O | ROD | MT-4 | - | >140 µM |
| Cc1cn([C@H]2C[C@H](N=[N+]=[N-])[C@@H](CO)O2)c(=O)[nH]c1=O | IIIB | MT-4 | - | 0.00061 µg/mL |
| COc1ccc(CSc2nc(C(=O)c3ccc(Br)cc3)c(C)c(=O)[nH]2)cc1 | - | MT-4 | - | >201 µM |
| Cc1cc(C)c(Nc2nc(NC3CCN(Cc4ccc([N+](=O)[O-])cc4)CC3)nc3nc[nH]c23)c(C)c1 | ROD | MT-4 | - | >21.8 µM |
| C=CCN=C(Nn1c(C)nc2ccccc2c1=O)SC | ROD | MT-4 | - | 5.77 µg/mL |
| COCCNC(=O)CSc1cnc(Nc2ccc(C#N)cc2)nc1Oc1c(C)cc(C#N)cc1C | ROD | MT-4 | - | >27.2 µM |
| Cc1cc(C#CCCO)cc(C)c1Oc1ccnc(Nc2ccc(C#N)cc2)n1 | ROD | MT-4 | - | >3.555 µM |
| COc1ccc(NC2=NS(=O)(=O)NC(Cc3ccc4ccccc4c3)=C2)cc1 | ROD | MT-4 | - | >165 µM |
| CC(C)CN(C[C@@H](O)[C@H](Cc1ccccc1)NC(=O)O[C@H]1CO[C@H]2OCC[C@H]21)S(=O)(=O)c1ccc2c(c1)OCO2 | EHO | MT-2 | - | 0.0032 µM |
| Cc1ccc(S(=O)(=O)NC(Cc2ccccc2)c2nnc(Nc3ccc(F)cc3)s2)cc1 | ROD | MT-4 | - | >2.06 µM |
| O=C(COc1ccc2ccccc2c1)NCc1nnc(Sc2nc3ccccc3[nH]2)n1-c1ccccc1 | ROD | MT-4 | - | >2.2 µg/mL |
| Cc1cc(C#N)cc(C)c1Oc1nc(Nc2ccc(C#N)cc2)ncc1SCC(=O)NCc1ccc(O)cc1 | ROD | MT-4 | - | >21.7 µM |
| Brc1ccc(-c2csc(N/N=C/c3ccncc3)n2)cc1 | ROD | MT-4 | - | >125 µM |
| O=C(COc1ccc2ccccc2c1)NCC(=O)NNC(=S)NCc1ccccc1 | ROD | MT-4 | - | >67 µg/mL |
| Cc1ccnc2c1NC(=O)c1cccnc1N2C1CC1 | ROD | MT-4 | - | >4 µM |
| Cc1cc(C#N)cc(C)c1Oc1nc(Nc2ccc(C#N)cc2)ncc1SCC(=O)N1CCN(C(=O)OC(C)(C)C)CC1 | ROD | MT-4 | - | >208 µM |
| C/C(=N\Nc1nc(-c2ccc([N+](=O)[O-])cc2)cs1)c1ccc2c(c1)OCO2 | ROD | MT-4 | - | >97.2 µM |
| Cc1cc(C)c(Nc2nc(NC3CCN(Cc4ccc(Cl)c(Cl)c4)CC3)nc3nc[nH]c23)c(C)c1 | ROD | MT-4 | - | >189 µM |
| N#Cc1ccc(Nc2nc(Oc3ccc(-c4ccc(C#N)cc4)c(C(F)(F)F)c3)c3sccc3n2)cc1 | ROD | MT-4 | - | >13.6 µM |
| COc1cc([C@@H]2Oc3cc([C@H]4Oc5cc(O)cc(O)c5C(=O)[C@@H]4O)ccc3O[C@H]2COP(=O)(O)OC[C@H]2O[C@H](OC)[C@H](O)[C@@H](O)[C@@H]2O)ccc1O | ROD | MT-4 | - | >160 µM |
| Cc1cc(C)c(Nc2nc(NC3CCN(Cc4ccccc4C#N)CC3)nc3nc[nH]c23)c(C)c1 | ROD | MT-4 | - | >125 µM |
| Cc1cc(C#N)cc(C)c1Oc1nc(Nc2ccc(C#N)cc2)ncc1SCC(=O)NCCCN1CCOCC1 | ROD | MT-4 | - | >27.1 µM |

Repeating the first 7 entries:

SMILES | strain | cells | conditions | value
Cc1cn([C@H]2C=C[C@@H](CO)O2)c(=O)[nH]c1=O | ROD | MT-4 | - | 0.024 µM
CCOP(=O)(CN[C@@H](Cc1ccccc1)[C@H](O)CN(CC(C)C)S(=O)(=O)c1ccc(OC)cc1)OCC | ROD | MT-4 | - | >64.5 µg/mL
Cc1ccc(S(=O)(=O)NC(c2nnc(Nc3ccc(Br)cc3)s2)C(C)C)cc1 | ROD | MT-4 | - | >6.49 µM
Cc1cc(C#N)cc(C)c1Oc1nc(Nc2ccc(C#N)cc2)ncc1SCC(=O)NCC1CCCO1 | ROD | MT-4 | - | >25.4 µM
Cc1ccc(S(=O)(=O)NC(C)c2nnc(Nc3ccc(F)cc3)s2)cc1 | ROD | MT-4 | - | >71.85 µM
O=[N+]([O-])c1ccc(/C=N/Nc2nc(-c3ccc([N+](=O)[O-])cc3)cs2)cc1 | ROD | MT-4 | - | >73.58 µM
COc1ccc(Nc2nnc(C(NS(=O)(=O)c3ccc(Cl)cc3)C(C)C)s2)cc1 | ROD | MT-4 | - | >10.08 µM